Source: PMC6181439 (2018)

Sequences of proteins named here, by UniProt entry; tags and fusion partners are left off. Residues count along the entry.
UniProt P04925, 23-230: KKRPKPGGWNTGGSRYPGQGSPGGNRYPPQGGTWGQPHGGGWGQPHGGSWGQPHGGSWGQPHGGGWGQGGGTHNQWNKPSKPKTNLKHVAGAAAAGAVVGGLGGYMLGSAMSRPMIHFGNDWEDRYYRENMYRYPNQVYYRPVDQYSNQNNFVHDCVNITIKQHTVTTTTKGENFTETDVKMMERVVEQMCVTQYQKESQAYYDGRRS

B1: Full IgG POM1 monoclonal antibody (antibody, V domains shown)
VH: QVQLQQSGTELVMPGASVKMSCKASGYTFTDYWMHWVKQRPGQGLEWIGSIDPSDSYTSHNEKFKGKATLTVDESSSTAYMQLSSLTSEDSAVYFCSRSGYGYYAMEYWGQGTSVTVSS
VL: DIVLTQSPAILSVSPGERVSFSCRASQNIGTSIHWYQQRTNESPRLIIKYASESISGIPSRFSGSGSGTDFTLSINSVESEDIADYYCQQSNTWPYTFGGGTKLELK
B2: scPOM1 (scFv, V domains shown)
VH: B1 VH
VL: B1 VL

Experiments:
[1] = target: T1, Recombinant mouse PrP full length (23-230) (mouse, UniProt P04925 23-230); experiment: SPR
[2] = target: T1, Recombinant mouse PrP full length …; experiment: SPR; remark: listed apart in the source

| Binder | Kd [1] [nM] | koff [2] [s⁻¹] |
| --- | --- | --- |
| B1 | 0.5 | 9.1e-05 |
| B2 | 4.8 | 0.00031 |
